Results of unrelated studies side by side (data: NIAID ChemDB).

Shared fields: growth or infection tests; species: Mycobacterium avium complex; measure: MIC

Lines come from different laboratories, so protocols vary.

NNC(=O)c1ccncc1 ; strain or isolate: 13887 (serotype 14) ; value: 0.8 µg/mL
CC[C@H]1OC(=O)[C@H](C)[C@@H](O[C@H]2C[C@@](C)(OC)[C@@H](O)[C@H](C)O2)[C@H](C)[C@@H](O[C@@H]2O[C@H](C)C[C@H](N(C)C)[C@H]2O)[C@](C)(O)C[C@@H](C)C(=O)[C@H](C)[C@@H](O)[C@]1(C)O ; strain or isolate: 3213 ; value: 64 µg/mL
NCC[C@H](O)C(=O)N[C@@H]1C[C@H](N)[C@@H](O[C@H]2O[C@H](CN)[C@@H](O)[C@H](O)[C@H]2O)[C@H](O)[C@H]1O[C@H]1O[C@H](CO)[C@@H](O)[C@H](N)[C@H]1O ; strain or isolate: TMC 1469 ; value: 1.56 µg/mL
O=C(O)c1cn(C2CC2)c2c(F)c(N3CCS(=O)(=O)CC3)c(F)cc2c1=O ; strain or isolate: 1172733 ; value: 2 µg/mL
NCC[C@H](O)C(=O)N[C@@H]1C[C@H](N)[C@@H](O[C@H]2O[C@H](CN)[C@@H](O)[C@H](O)[C@H]2O)[C@H](O)[C@H]1O[C@H]1O[C@H](CO)[C@@H](O)[C@H](N)[C@H]1O ; strain or isolate: 562/HIV+ ; value: 1.25 µg/mL
NCCC(O)C(N)CC(=O)NC1CNC(=O)C(C2CCN=C(N)N2)NC(=O)/C(=C/NC(N)=O)NC(=O)C(CO)NC(=O)C(CO)NC1=O ; strain or isolate: Isolate 49 ; value: 25 µg/mL
CCn1cc(C(=O)O)c(=O)c2cc(F)c(N3CCNCC3)cc21 ; strain or isolate: CIPT 140310034 ; value: 10 µg/mL
NCCC[C@H](N)CC(=O)N[C@H]1CNC(=O)[C@H]([C@H]2C[C@H](O)NC(N)=N2)NC(=O)/C(=C/NC(N)=O)NC(=O)[C@H](CO)NC(=O)[C@H](CO)NC1=O ; strain or isolate: Isolate 49 ; value: 12.5 µg/mL
CC1CCN(c2c(F)cc3c(=O)c(C(=O)O)cn(C4CC4)c3c2F)C1 ; strain or isolate: 1915112 ; value: 4 µg/mL
NC[C@@H]1O[C@H](O[C@H]2[C@@H](O)[C@H](O[C@@H]3[C@@H](O)[C@H](N)C[C@H](N)[C@H]3O[C@H]3O[C@H](CO)[C@@H](O)[C@H](O)[C@H]3N)O[C@@H]2CO)[C@H](N)[C@@H](O)[C@@H]1O ; strain or isolate: LR25/HIV+ ; value: 1.56 µg/mL
CC[C@@H](CO)NCCN[C@@H](CC)CO ; strain or isolate: 2020-4 ; value: 1.9 µg/mL
O=C(O)c1cn(C2CC2)c2c(F)c(N3CCSCC3)c(F)cc2c1=O ; strain or isolate: 1915112 ; value: 4 µg/mL
NC[C@H]1O[C@H](O[C@H]2[C@H](O[C@@H]3O[C@H](CO)[C@@H](O)[C@H]3O)[C@@H](O)[C@H](N)C[C@@H]2N)[C@H](N)[C@@H](O)[C@@H]1O ; strain or isolate: Isolate 53 ; value: 3.13 µg/mL
CC1CN(c2cc3c(cc2F)c(=O)c(C(=O)O)cn3-c2ccc(F)cc2F)CCN1 ; strain or isolate: 3216 ; value: 16 µg/mL
NCC1CN(c2c(F)cc3c(=O)c(C(=O)O)cn(C4CC4)c3c2F)CC1c1ccccc1 ; strain or isolate: 1915112 ; value: 16 µg/mL
C[C@@H]1CN(c2c(F)c(N)c3c(=O)c(C(=O)O)cn(C4CC4)c3c2F)C[C@H](C)N1 ; strain or isolate: 8 ; read by: broth dilution ; value: 2 µg/mL
C[C@@H]1CN(c2c(F)c(N)c3c(=O)c(C(=O)O)cn(C4CC4)c3c2F)C[C@H](C)N1 ; strain or isolate: 1988557 ; value: 1 µg/mL
NCCC(O)C(N)CC(=O)NC1CNC(=O)C(C2CCN=C(N)N2)NC(=O)/C(=C/NC(N)=O)NC(=O)C(CO)NC(=O)C(CO)NC1=O ; strain or isolate: 13008 (serotype 20) ; value: 6.25 µg/mL
CCn1cc(C(=O)O)c(=O)c2cc(F)c(N3CCNCC3)nc21 ; strain or isolate: CIPT 14031005 ; value: >40 µg/mL
CC[C@@H](CO)NCCN[C@@H](CC)CO ; strain or isolate: 3214 ; value: 16 µg/mL
CN[C@@H]1[C@H](O[C@H]2[C@H](O[C@H]3[C@H](O)[C@@H](O)[C@H](N=C(N)N)[C@@H](O)[C@@H]3N=C(N)N)O[C@@H](C)[C@]2(O)C=O)O[C@@H](CO)[C@H](O)[C@H]1O ; strain or isolate: Isolate C-45 ; value: 25 µg/mL
O=C(O)c1cn(C2CC2)c2c(F)c(N3CCC(N4CCCC4)C3)c(F)cc2c1=O ; strain or isolate: 1915112 ; value: 2 µg/mL

For reference, 2 entries again:

{"structure": "NCCC[C@H](N)CC(=O)N[C@H]1CNC(=O)[C@H]([C@H]2C[C@H](O)NC(N)=N2)NC(=O)/C(=C/NC(N)=O)NC(=O)[C@H](CO)NC(=O)[C@H](CO)NC1=O", "strain or isolate": "Isolate 49", "value": "12.5 µg/mL"}
{"structure": "NCCC(O)C(N)CC(=O)NC1CNC(=O)C(C2CCN=C(N)N2)NC(=O)/C(=C/NC(N)=O)NC(=O)C(CO)NC(=O)C(CO)NC1=O", "strain or isolate": "13008 (serotype 20)", "value": "6.25 µg/mL"}